In article PMC8228323, “Biodegradation of L-Valine Alkyl Ester Ibuprofenates by Bacterial Cultures” (Materials, 2021):

System: active sludge (bacterial cultures)
Assay: Degradation by active sludge indicated by consumption of the tested compounds (HPLC of test vessel)
Details: for Degradation rate by active sludge: at 29–68 days; for Degradation rate: between 1–28 days; for Amount of compound degraded: within 68 days; for Amount of compound degraded / Degradation of the compound: active sludge; for Degradation of the compound: within / after 68 days

Row | SMILES | Degradation rate by active sludge [%/day] | Degradation rate [%] | Amount of compound degraded [mg/L] | Degradation of the compound [%] | Detection of the test compound in the test vessel by HPLC (after 28 days of biodegradation)
1 | CC(C)Cc1ccc(C(C)C(=O)O)cc1 (stereo not shown) [IBU, ibuprofen] | ≥ 1 | 2.3 | 52.71 | ~100 | 
2 | CCCCCCCCCCCCOS(=O)(=O)[O-].[Na+] [SDS, sodium dodecyl sulfate, reference compound] |  | 3.1 | 84.11 | ~100 | 
3 | CC(C)Cc1ccc(C(C)C(=O)O)cc1.CCCCCOC(=O)[C@@H](N)C(C)C (stereo not shown) [[ValOAm][IBU]] | ≤ 1 | 2.1 |  | 89.0 | could still be detected
4 | CC(C)Cc1ccc(C(C)C(=O)O)cc1.CCCCOC(=O)[C@@H](N)C(C)C (stereo not shown) [[ValOBu][IBU]] | ≤ 1 | 2.1 | 56.87 | ~100 | 
5 | CC(C)Cc1ccc(C(C)C(=O)O)cc1.CCOC(=O)[C@@H](N)C(C)C (stereo not shown) [[ValOEt][IBU]] | ≥ 1 | 2.3 | 57.58 | ~100 | 
6 | CC(C)Cc1ccc(C(C)C(=O)O)cc1.CCCCCCCOC(=O)[C@@H](N)C(C)C (stereo not shown) [[ValOHept][IBU]] | ≤ 1 | 1.9 |  | 74.0 | 
7 | CC(C)Cc1ccc(C(C)C(=O)O)cc1.CCCCCCOC(=O)[C@@H](N)C(C)C (stereo not shown) [[ValOHex][IBU]] | ≤ 1 | 2.0 |  | 75.0 | 
8 | CC(C)Cc1ccc(C(C)C(=O)O)cc1.COC(=O)[C@@H](N)C(C)C (stereo not shown) [[ValOMe][IBU]] | ≥ 1 | 3.4 | 58.57 | ~100 | 
9 | CC(C)Cc1ccc(C(C)C(=O)O)cc1.CCCCCCCCOC(=O)[C@@H](N)C(C)C [[ValOOct][IBU]] | ≤ 1 | 1.4 |  | 42.0 | 
10 | CC(C)Cc1ccc(C(C)C(=O)O)cc1.CCCOC(=O)[C@@H](N)C(C)C (stereo not shown) [[ValOPr][IBU]] | ≥ 1 | 2.5 | 57.38 | ~100 | 
11 | CC(C)Cc1ccc(C(C)C(=O)O)cc1.CC(C)OC(=O)[C@@H](N)C(C)C (stereo not shown) [[ValOiPr][IBU]] | ≥ 1 | 2.8 | 57.38 | ~100 | 
